Source: patent publication US10668048B2, “Compounds for inhibiting bacterial growth via phosphatidylglycerol binding” (Wichita State University, priority 2016, dated 2020)

Assay: Liptin-PG binding in solution (ITC and/or 1H NMR titration)
Experimental: The lipid binding ability of liptins 1-3 (FIG. 2A) have been investigated in solution using isothermal titration calorimetry (ITC) and/or ^1H NMR. Stoichiometry of binding was accomplished with Job plots using ^1H NMR. […] The use of organic solvents allowed the determination of binding motif using ^1H NMR.
Liptins 1b, 1e, 2c, 2d, 3a, 3c in DMF/5% CHCl3; 3e in 50% DMSO, 45% CHCl3, 5% CH3OH.
Liptins 1h and 1i 40% DMSO, 60% CHCl3, 3f in 20% DMSO, 80% CHCl3.

[1] = ITC, 50% DMSO, 45% CHCl3, 5% CH3OH

In the case of `O=C(NCCOCc1ccccc1)Nc1ccccc1-c1c2nc(c(-c3ccccc3NC(=O)NCCOCc3ccccc3)c3ccc([nH]3)c(-c3ccccc3NC(=O)NCCOCc3ccccc3)c3nc(c(-c4ccccc4NC(=O)NCCOCc4ccccc4)c4ccc1[nH]4)C=C3)C=C2` [Liptin 3a], the ΔH (ITC, DMF/5% CHCl3) is reported as -2.8 kcal/mol and the ΔS (ITC, DMF/5% CHCl3) is reported as 6 e.u.
Work on `O=C(NCc1cc(CCCO)cc2c1OCOc1c(cc(CCCO)cc1CNC(=O)Nc1ccccc1)CCC2)Nc1ccccc1` [Liptin 2c] yielded a ΔH (ITC, DMF/5% CHCl3) of -1.4 kcal/mol and a ΔS (ITC, DMF/5% CHCl3) of 8 e.u.
With `NCC(=O)Nc1ccccc1-c1c2nc(c(-c3ccccc3NC(=O)CN)c3ccc([nH]3)c(-c3ccccc3NC(=O)CN)c3nc(c(-c4ccccc4NC(=O)CN)c4ccc1[nH]4)C=C3)C=C2.O=C(O)C(F)(F)F.O=C(O)C(F)(F)F.O=C(O)C(F)(F)F.O=C(O)C(F)(F)F` [Liptin 3e] the ΔH [1] was 0.7 kcal/mol and the ΔS [1] was 18 e.u.
For `CCCCCCNC(=O)CCc1ccc2c(c1)CNCCCNCc1cc(CCC(=O)NCCCCCC)ccc1OCCCCO2` [Liptin 1i], the ΔH (40% DMSO, 60% CHCl3) was 3.7 kcal/mol and the ΔS (40% DMSO, 60% CHCl3) was 27 e.u.
`CCOCCOCCOCCNC(=O)Nc1ccccc1-c1c2nc(c(-c3ccccc3NC(=O)NCCOCCOCCOCC)c3ccc([nH]3)c(-c3ccccc3NC(=O)NCCOCCOCCOCC)c3nc(c(-c4ccccc4NC(=O)NCCOCCOCCOCC)c4ccc1[nH]4)C=C3)C=C2` [Liptin 3c] gave a ΔH (ITC, DMF/5% CHCl3) of -1.2 kcal/mol and a ΔS (ITC, DMF/5% CHCl3) of 12 e.u.
`CCCCCCNC(=O)CCc1ccc2c(c1)CNCCCNCc1cc(CCC(=O)NCCCCCC)ccc1OCCCCCO2` [Liptin 1h] gave a ΔH (40% DMSO, 60% CHCl3) of 0.6 kcal/mol and a ΔS (40% DMSO, 60% CHCl3) of 19 e.u.
